Results of unrelated studies side by side (data: NIAID ChemDB).

All rows: whole-cell or culture tests; species: HIV-1; cell line: MT-4; endpoint: EC50

ECn is the concentration giving n% inhibition of infection, replication or growth. Blank or dashed fields: not listed here. Conditions beyond the fields shown may differ between rows.

| SMILES | strain or isolate | mutations | read by | conditions | result |
|---|---|---|---|---|---|
| CCc1c(Cc2ccc(OC)c(OC)c2)n(COCCc2ccccc2)c(=O)[nH]c1=O | A17 | K103N/Y181C | MTT |  | >73 µM |
| Cn1cnc(CN2CCn3c(nc(C(=O)NCc4ccc(F)cc4)c(O)c3=O)C2(C)C)n1 |  |  | p24 |  | <1 µM |
| CC1=C(C)[C@]2(C)C(C)[C@@]1(C)[C@@H]1C(=O)N(N)C(=O)[C@@H]12 | IIIB |  | cytopathic effect / MTT |  | >100 µM |
| COC(=O)N[C@H](C(=O)N[C@@H](Cc1ccccc1)C[C@H](O)[C@H](Cc1ccc(-c2cccc(N)c2)cc1)NC[C@@H](NC(=O)OC)C(C)(C)C)C(C)(C)C | pNL4-3 |  | MTT |  | 5 nM |
| CCc1c(Cc2cc(OC)cc(OC)c2)[nH]c(=S)[nH]c1=O | IIIB |  | MTT |  | >100 µM |
| CC(C)CN(C[C@@H](O)[C@H](Cc1ccccc1)NC(=O)O[C@H]1CO[C@H]2OCC[C@H]21)S(=O)(=O)c1ccc(-c2cnc(N)[nH]2)cc1 | LAI |  | cytopathic effect / MTT |  | 0.631 µM |
| COC(=O)N[C@H](C(=O)N[C@@H](Cc1ccccc1)C[C@H](O)[C@H](Cc1ccc(-c2cncc(F)c2)cc1)NC[C@@H](NC(=O)OC)C(C)(C)C)C(C)(C)C | pNL4-3 |  | MTT | 50% human serum | 24 nM |
| CC(C)CN(C(=O)C(=O)N(C)C)C1CN(C)CCn2c1nc(C(=O)NCc1ccc(F)cc1)c(O)c2=O |  |  | p24 |  | <1 µM |
| C=C1C[C@@]23CC[C@@H]4C(C)(C)[C@H](O)CC[C@@]4(C)[C@@H]2C[C@@H]1[C@@H](O)C3=O |  |  | MTT |  | >25 µg/mL |
| Cc1cc(/C=C/C#N)cc(C)c1Oc1nc(NC2CCN(Cc3ccc(F)cc3)CC2)nc2ccsc12 | IIIB | NNRTI-resistant (RT Y188L) | MTT |  | 0.155 µM |
| CC1(C)C(=O)CC[C@]2(C)[C@@H]1CC[C@@]13CC[C@@H](C[C@H]12)C([C@@H](O)CO)C3 |  |  | MTT |  | 6.6 µg/mL |
| Nc1nc(=O)n([C@@H]2CC[C@H](CO)O2)cc1F | RF |  | syncytia |  | 0.055 µM |
| COC(=O)N[C@H](C(=O)N[C@@H](Cc1ccccc1)C[C@H](O)[C@H](Cc1ccc(-c2ccc(C#N)nc2)cc1)NC[C@@H](NC(=O)OC)C(C)(C)C)C(C)(C)C | pNL4-3 |  | MTT | 50% human serum | 23 nM |
| C#Cc1ccc(Nc2nccc(Oc3c(C)cc(-c4cn(CCc5cccs5)nn4)cc3C)n2)cc1 | IIIB | E138K | MTT |  | 0.61 µM |
| COC(=O)N[C@H](C(=O)N[C@@H](Cc1ccccc1)C[C@H](O)[C@H](Cc1ccc(-c2ccccc2)cc1)NC[C@@H](NC(=O)OC)C(C)(C)C)C(C)(C)C | pNL4-3 |  | MTT | 50% human serum | 95 nM |
| Cc1ccc(CN2CCC(Nc3nc(Oc4c(C)cc(/C=C/C#N)cc4C)c4sccc4n3)CC2)cc1 | IIIB | NNRTI-resistant (RT Y188L) | MTT |  | 0.138 µM |
| CCc1c(Cc2ccc(C)cc2)n(COCc2ccccc2)c(=O)[nH]c1=O | IIIB |  | MTT |  | 1.1 µM |
| Cc1cccc(C)c1OCC(=O)N[C@@H](Cc1ccccc1)[C@H](O)CN(CC(C)C)S(=O)(=O)c1ccc(-c2csc(Nc3ccncc3)n2)cc1 | LAI |  | cytopathic effect / MTT |  | 3.981 µM |
| [O-][n+]1onc2ncnc(N3CC[N+]4(CC3)CC[N+]3(CCN(c5ncnc6no[n+]([O-])c56)CC3)CC4)c21 | A17 | RT-K103N Y181C | cytopathic effect / XTT |  | 33.7 µM |
| C/C=C(\C)C(=O)OC[C@]1(C)C(=O)CC[C@@]2(C)[C@@H]3C[C@@H]4CC[C@@]3(CC[C@@H]21)CC4[C@@H](O)CO |  |  | MTT |  | 6.4 µg/mL |
| COc1cccc2c1nc(-c1ccccc1F)n2CC1CCC1 | IIIB |  |  |  | 0.0038 µg/mL |
| COc1ccc(NC(=S)NN2C(=O)[C@H]3[C@H]4C=C(C)[C@H](C[C@@H]4C(C)C)[C@H]3C2=O)cc1 | IIIB |  | cytopathic effect / MTT |  | >52 µM |
| CCOCn1c(Cc2cc(OC)cc(OC)c2)c(C(C)C)c(=O)[nH]c1=O | N119 | Y181C | MTT |  | 28 µM |
| Cc1cc(Br)cc(C)c1OCC(=O)N[C@@H](Cc1ccccc1)[C@H](O)CN(CC(C)C)S(=O)(=O)c1ccc(-c2csc(Nc3ccccc3)n2)cc1 | LAI |  | cytopathic effect / MTT |  | 100 µM |
| Cc1cc(/C=C/C#N)cc(C)c1Oc1nc(NC2CCN(Cc3ccc(C#N)cc3)CC2)nc2ccsc12 | IIIB | NNRTI-resistant (RT E138K) | MTT |  | 0.0296 µM |
| Cc1nc(-c2ccc(S(=O)(=O)N(CC(C)C)C[C@@H](O)[C@H](Cc3ccccc3)NC(=O)OCc3cncs3)cc2)co1 | LAI |  | cytopathic effect / MTT |  | 0.501 µM |
| CCOCn1c(Cc2ccc(OC)c(OC)c2)c(CC)c(=O)[nH]c1=O | N119 | Y181C | MTT |  | >100 µM |
| Cc1cc(C#N)cc(C)c1Oc1nc(NC2CCN(Cc3ccc(S(N)(=O)=O)cc3)CC2C(=O)O)nc2ccsc12 | IIIB | NNRTI-resistant (RT L100I) | MTT |  | 1.64 µM |
| Cc1nnc(C(=O)N(C)C2COCCn3c2nc(C(=O)NCc2ccc(F)cc2)c(O)c3=O)o1 |  |  | p24 |  | <1 µM |
| O=C1Nc2ccc(Cl)cc2[C@@](C#CC2CC2)(C(F)(F)F)O1 | IIIB | Efavirenz-resistant (K103R + V179D + P225H) | MTT |  | 14 µM |
| C=C(CC[C@](C)(O)[C@H]1[C@@H](O)C[C@H]2[C@@H]3[C@H](O)C=C4C[C@@H](O)CC[C@]4(C)[C@H]3CC[C@@]21C)C(C)C | NL4-3 |  | MTT |  | 1.75 µM |
| COc1cccc2c1nc(-c1ccccc1F)n2Cc1ccc(Cl)cc1 | IIIB |  |  |  | 1.83 µg/mL |
| CCc1c(Cc2cc(C)cc(C)c2)n(COCCc2ccccc2)c(=O)[nH]c1=O | IIIB |  | MTT |  | 0.03 µM |
| Cc1nc(CN2CCn3c(nc(C(=O)NCc4ccc(F)cc4)c(O)c3=O)C2(C)C)cs1 |  |  | p24 |  | <1 µM |
| Cc1cc(/C=C/C#N)cc(C)c1Oc1nc(NC2CCN(Cc3cccc(F)c3)CC2)nc2ccsc12 | IIIB | NNRTI-resistant (RT K103N) | MTT |  | 0.0211 µM |
| COc1cc(Cc2[nH]c(=O)[nH]c(=O)c2C(C)C)cc(OC)c1 | N119 | Y181C | MTT |  | >100 µM |
| COC(=O)N[C@H](C(=O)N[C@@H](Cc1ccccc1)C[C@H](O)[C@H](Cc1ccc(-c2ccc(F)nc2)cc1)NC[C@@H](NC(=O)OC)C(C)(C)C)C(C)(C)C | pNL4-3 |  | MTT |  | 3 nM |
| C#Cc1ccc(Nc2nccc(Oc3c(C)cc(-c4cn(Cc5ccc(C(=O)OC)cc5)nn4)cc3C)n2)cc1 | IIIB |  | MTT |  | 0.064 µM |
| CC(=O)N(C)C1COCCn2c1nc(C(=O)NCc1ccc(F)cc1)c(O)c2=O |  |  | p24 |  | <1 µM |
| COc1ccc(NC(=S)NN2C(=O)[C@@H]3[C@H](C2=O)[C@]2(C)C=C[C@@]3(C(C)C)CC2)cc1 | IIIB |  | cytopathic effect / MTT |  | >76 µM |
| CC(C)[C@H](C)CC[C@](C)(O)[C@H]1C(=O)C[C@H]2[C@@H]3C(=O)C=C4C[C@@H](O)CC[C@]4(C)[C@H]3CC[C@@]21C | NL4-3 | N155H integrase inhibitor-resistant | MTT |  | 0.1269 µM |
| CCOCn1c(Cc2ccccc2)c(C(C)C)c(=O)[nH]c1=O | N119 RT-Y181C NNRTI-resistant | RT-Y181C | cytopathic effect / MTT |  | 44 µM |
| CC1(C)C(=O)C=C[C@]2(C)[C@@H]1CC[C@@]13CC[C@@H](C[C@H]12)[C@](O)(CO)C3 |  |  | MTT |  | >25 µg/mL |
| CCc1c(Cc2ccccc2)n(COCCOc2ccccc2)c(=O)[nH]c1=O | A17 | K103N + Y181C | MTT |  | >32 µM |
| Cc1cc(/C=C/C#N)cc(C)c1Oc1nc(NC2CCN(Cc3ccccc3Br)CC2)nc2ccsc12 | IIIB | NNRTI-resistant (RT Y181C) | MTT |  | 0.123 µM |
| CC1=C[C@@H]2[C@@H]3C(=O)N(NC(=O)Nc4ccccc4)C(=O)[C@@H]3[C@H]1C[C@@H]2C(C)C | IIIB |  | cytopathic effect / MTT |  | 62 µM |
| CC(C)c1c(Cc2ccccc2)n(COCc2ccccc2)c(=O)[nH]c1=O | SF33 |  | p24 / ELISA |  | 0.016 µM |
| COC(=O)N[C@H](C(=O)N[C@@H](Cc1ccccc1)C[C@H](O)[C@H](Cc1ccc(-c2ccc(C(C)=O)cc2)cc1)NC[C@@H](NC(=O)OC)C(C)(C)C)C(C)(C)C | pNL4-3 |  | MTT |  | 1 nM |
| COc1cc(Cc2[nH]c(=S)[nH]c(=O)c2C(C)C)cc(OC)c1 | IIIB |  | MTT |  | >100 µM |
| CC1(C)CC[C@H](O)[C@]2(C)[C@@H]1CC[C@@]13CC[C@@H](C[C@H]12)C([C@@H](O)CO)C3 |  |  | MTT |  | >25 µg/mL |
| C=CCOCn1c(CC2CCCc3ccccc32)c(CC)c(=O)[nH]c1=O | IIIB |  | cytopathic effect / MTT |  | 4 µM |
| COC(=O)N[C@H](C(=O)N[C@@H](Cc1ccccc1)C[C@H](O)[C@H](Cc1ccc(-c2ccnc(F)c2)cc1)NC[C@@H](NC(=O)OC)C(C)(C)C)C(C)(C)C | pNL4-3 |  | MTT | 50% human serum | 7 nM |
| CNc1nc(-c2ccc(S(=O)(=O)N(CC(C)C)C[C@@H](O)[C@H](Cc3ccccc3)NC(=O)O[C@H]3CO[C@H]4OCC[C@H]43)cc2)cs1 |  | PR-L010F M046I M071V I084V | cytopathic effect / MTT |  | 0.126 µM |
| C=CCn1c(-c2ccccc2F)nc2c(OC)cccc21 | IIIB |  |  |  | 0.43 µg/mL |
| CCc1c(Cc2ccc(C)cc2)n(COCCCc2ccccc2)c(=O)[nH]c1=O | N119 | Y181C | MTT |  | >43 µM |
| CC(C)CN(C[C@@H](O)[C@H](Cc1ccccc1)NC(=O)O[C@H]1CO[C@H]2OCC[C@H]21)S(=O)(=O)c1ccc(-c2csc(NCCN3CCCC3)n2)cc1 | LAI |  | cytopathic effect / MTT |  | 0.013 µM |
| CCc1c(Cc2cc(OC)cc(OC)c2)n(COCCOc2ccccc2)c(=O)[nH]c1=O | IIIB |  | MTT |  | 0.35 µM |

The last 5 rows once more:

SMILES	strain or isolate	mutations	read by	conditions	result
CNc1nc(-c2ccc(S(=O)(=O)N(CC(C)C)C[C@@H](O)[C@H](Cc3ccccc3)NC(=O)O[C@H]3CO[C@H]4OCC[C@H]43)cc2)cs1		PR-L010F M046I M071V I084V	cytopathic effect / MTT		0.126 µM
C=CCn1c(-c2ccccc2F)nc2c(OC)cccc21	IIIB				0.43 µg/mL
CCc1c(Cc2ccc(C)cc2)n(COCCCc2ccccc2)c(=O)[nH]c1=O	N119	Y181C	MTT		>43 µM
CC(C)CN(C[C@@H](O)[C@H](Cc1ccccc1)NC(=O)O[C@H]1CO[C@H]2OCC[C@H]21)S(=O)(=O)c1ccc(-c2csc(NCCN3CCCC3)n2)cc1	LAI		cytopathic effect / MTT		0.013 µM
CCc1c(Cc2cc(OC)cc(OC)c2)n(COCCOc2ccccc2)c(=O)[nH]c1=O	IIIB		MTT		0.35 µM